Results taken from article PMC3616969.

Target: HIV-1 AD8 gp120 (wild type), cut from Env gp160 (HIV-1 AD8)

## soluble CD4 (from UniProt P01730) (receptor)
  IC50 of sCD4 for inhibition of cell-cell fusion by WT Env (293T effectors, CD4-plus-CCR5 BHK21 targets, luciferase): 60 µg/mL
